Compound potency records, mixed from different reports. Data source: NIAID ChemDB in PubChem.

All rows: target-level tests

Blank or dashed fields: not listed here. Inhibition is in % at the dose shown (toxicity tests: loss of growth or viability). a–b is a range or a potency band. ICn is the concentration giving n% inhibition. Lines come from different laboratories, so protocols vary.

structure	protein	tested at	endpoint	agent	value
O=C1c2ccccc2C(=O)c2cc(CN(c3ccc(Cl)cc3Cl)[C@@H](Cc3ccccc3)C(=O)O)ccc21	RNA-dependent RNA polymerase		IC50	Hepatitis C virus	<5 µM
CSc1ncc(C(=O)N2CCN(CCO)CC2)c(Nc2ccc3[nH]ncc3c2)n1	Reverse transcription		IC50	Hepatitis B virus	~1 µg/mL
O=C(O)c1sc(-c2ccccc2)cc1N(C(=O)c1ccc(Cl)cc1Cl)C1CCN(C(=O)c2ccc(Cl)cc2Cl)CC1	NS3 ATPase		IC50	Hepatitis C virus	<5 µM
COC(=O)c1ccc(-c2ccc(CN([C@@H](Cc3ccccc3)C(=O)O)S(=O)(=O)c3c(C)cc(OC)c(C)c3C)cc2)o1	RNA-dependent RNA polymerase		IC50	Hepatitis C virus	>20 µM
Fc1cc(COc2ccc(-c3cnc4c(-c5nn[nH]n5)cnn4c3C3CCCCC3)cc2)cc(C(F)(F)F)c1	RNA-dependent RNA polymerase		IC50	Hepatitis C virus	1–10 µM
CNC(=O)c1c(-c2ccc(F)cc2)oc2cc(N(C)S(C)(=O)=O)c(OCc3ccc(C#N)cc3)cc12	Nonstructural protein 5B		IC50	Hepatitis C virus	≤0.5 µM
O=C(NC(Cc1cnc[nH]1)C(=O)O)c1ccc2c(c1)nc(-c1ccc3nc(-c4ccccc4)cnc3c1)n2C1CCCCC1	NS5B polymerase	100 µM	inhibition	Hepatitis C virus	94.24%
COc1ccc(-c2ccc(CN(C(=O)c3ccc(Cl)cc3Cl)C(Cc3ccccc3)C(=O)O)o2)cc1	RNA-dependent RNA polymerase		IC50	Hepatitis C virus	<5 µM
CCNC(=O)c1c(-c2ccc(F)cc2)oc2cc(NS(C)(=O)=O)c(OC(C)C)cc12	Nonstructural protein 5B		IC50	Hepatitis C virus	≤0.5 µM
O=C(O)C[C@H](Cc1ccccc1)N(Cc1ccc(-c2cccc(C(F)(F)F)c2)o1)C(=O)c1ccc(Cl)cc1Cl	RNA-dependent RNA polymerase		IC50	Hepatitis C virus	<5 µM
COc1cc(-c2cc(-c3ccc(Oc4cccc(Cl)c4)cc3)nc3cc(C(=O)O)nn23)ccc1Cl	RNA-dependent RNA polymerase		IC50	Hepatitis C virus	>10 µM
O=C(Nc1ccc2[nH]ncc2c1)c1cc(NCCCn2ccnc2)c(F)cc1F	Reverse transcriptase	1 µg/mL	inhibition	Hepatitis B virus	83%
CC[C@H](CO)NC(=O)c1cnc(SC)nc1Nc1ccc2cn[nH]c2c1	Reverse transcription		IC50	Hepatitis B virus	<0.1 µg/mL
COc1ccc(-c2ccc(CN(C(=O)c3ccc(Cl)cc3Cl)C(Cc3ccccc3)C(=O)O)s2)cc1	RNA-dependent RNA polymerase		IC50	Hepatitis C virus	<5 µM
Cc1nc(C)c(COc2ccc(-c3cnc4c(-c5nn[nH]n5)cnn4c3C3CCCCC3)cc2)s1	RNA-dependent RNA polymerase		IC50	Hepatitis C virus	1–10 µM
Cc1cc(-c2ccccc2Br)nc2ccc(-c3nc4cc(C(=O)O)ccc4n3C3CCCCC3)cc12	NS5B polymerase	100 µM	inhibition	Hepatitis C virus	99.81%
CN(C)CCNc1cc(C(=O)Nc2ccc3[nH]ncc3c2)c(F)cc1F	Reverse transcriptase	0.1 µg/mL	inhibition	Hepatitis B virus	53%
O=C(O)c1ccc2c(c1)nc(-c1cc3ccc(-c4ccccc4-c4ccc(Cl)cc4)nc3cc1F)n2C1CCCCC1	NS5B polymerase	100 µM	inhibition	Hepatitis C virus	98.86%
O=C(Nc1ccc2[nH]ncc2c1)c1cc(NCCN2CCCC2)c(F)cc1F	Reverse transcriptase	0.01 µg/mL	inhibition	Hepatitis B virus	49%
CNC(=O)c1c(-c2ccc(F)cc2)oc2cc(N3CCCC3)c(OC)cc12	Nonstructural protein 5B		IC50	Hepatitis C virus	≤0.5 µM
CC(c1ccccc1)N(C(=O)c1ccc(Cl)cc1Cl)c1cc(-c2ccc(-c3ccccc3)cc2)sc1C(=O)O	NS3 ATPase		IC50	Hepatitis C virus	<5 µM
Cc1onc(-c2c(Cl)cccc2Cl)c1CN(C(=O)c1ccc(Cl)cc1Cl)[C@@H](Cc1ccccc1)C(=O)O	RNA-dependent RNA polymerase		IC50	Hepatitis C virus	<5 µM
Cc1ccc(S(=O)(=O)Nc2cc(-c3ccccc3)sc2C(=O)O)c([N+](=O)[O-])c1	NS3 ATPase		IC50	Hepatitis C virus	5–20 µM
O=C(O)c1ccc2c(c1)nc(-c1ccc3ncc(-c4ccccc4)nc3c1)n2C1CCCCC1	NS5B polymerase	100 µM	inhibition	Hepatitis C virus	98.95%
CSc1ncc(C(=O)NCc2cccnc2)c(Nc2ccc3[nH]ncc3c2)n1	Reverse transcription		IC50	Hepatitis B virus	<0.01 µg/mL
COc1ccc2c(C[C@@H]3C[C@H]4C(=O)N[C@]5(C(=O)O)CC5/C=C/CCCCC[C@H](NC(=O)OC(C)(C)C)C(=O)N4C3)cc(-c3ccccc3)nc2c1	NS3 serine protease		Ki	Hepatitis C virus	<0.001 µM
CNC(=O)c1c(-c2ccc(F)cc2)oc2cc(N(Cc3csc(C)n3)S(C)(=O)=O)c(OC(C)C)cc12	Nonstructural protein 5B		IC50	Hepatitis C virus	≤0.5 µM
CC1(C)C(CC(=O)O)CC1c1ccc2cc(-c3nc4cc(C(=O)O)ccc4n3C3CCCCC3)ccc2n1	NS5B polymerase	33 µM	inhibition	Hepatitis C virus	99.04%
c1ccc(COc2ccc(-c3cnc4c(-c5nn[nH]n5)cnn4c3C3CCOCC3)cc2)cc1	RNA-dependent RNA polymerase		IC50	Hepatitis C virus	>10 µM
Cc1oc2ccc(OCc3ccccc3)cc2c1-c1ccc2cc(-c3nc4cc(C(=O)O)ccc4n3C3CCCCC3)ccc2n1	NS5B polymerase	33 µM	inhibition	Hepatitis C virus	94.57%
CC(C)CNc1cc(C(=O)Nc2ccc3cn[nH]c3c2)c(F)cc1F	Reverse transcriptase	0.01 µg/mL	inhibition	Hepatitis B virus	18%
CSc1ncc(C(N)=O)c(Nc2ccc3[nH]ncc3c2)n1	Reverse transcription		IC50	Hepatitis B virus	<0.1 µg/mL
COc1ccc(-c2ccc(C(F)(F)F)cc2)c(-c2ccc3cc(-c4nc5cc(C(=O)O)ccc5n4C4CCCCC4)ccc3n2)c1	NS5B polymerase	100 µM	inhibition	Hepatitis C virus	99.29%
CSc1ncc(C(=O)NCCc2ccccn2)c(Nc2ccc3[nH]ncc3c2)n1	Reverse transcription		IC50	Hepatitis B virus	~0.01 µg/mL
O=C(NC(Cc1ccc(-c2ccccc2)cc1)C(=O)O)c1ccc2c(c1)nc(-c1ccc3nc(-c4ccccc4)cnc3c1)n2C1CCCCC1	NS5B polymerase	33 µM	inhibition	Hepatitis C virus	95.74%
O=C(Nc1ccc2[nH]ncc2c1)c1cc(NCCc2ccccn2)c(F)cc1F	Reverse transcriptase	0.01 µg/mL	inhibition	Hepatitis B virus	7%
CC(C)Cc1ccc(-c2cc(NS(=O)(=O)c3ccc(Br)cc3F)c(C(=O)O)s2)cc1	NS3 ATPase		IC50	Hepatitis C virus	5–20 µM
O=C(O)[C@H](Cc1ccccc1)N(Cc1ccc(-c2cccc(C(F)(F)F)c2)o1)C(=O)c1ccc(Cl)cc1Br	RNA-dependent RNA polymerase		IC50	Hepatitis C virus	<5 µM
CC(C)N(C(=O)c1ccc(Cl)cc1Br)c1cc(-c2ccccc2)sc1C(=O)O	NS3 ATPase		IC50	Hepatitis C virus	<5 µM
N#Cc1cnn2c(C3CCCCC3)c(-c3ccc(OCc4ccccc4)cc3)cnc12	RNA-dependent RNA polymerase		IC50	Hepatitis C virus	>10 µM
C=CCN(C(=O)c1ccc(Cl)cc1Cl)[C@@H](Cc1ccccc1)C(=O)O	RNA-dependent RNA polymerase		IC50	Hepatitis C virus	5–20 µM
O=C(O)c1cc2nc(-c3ccc(Cl)cc3Cl)cc(-c3cccc(OCc4ccccc4)c3)n2n1	RNA-dependent RNA polymerase		IC50	Hepatitis C virus	1–10 µM
Cc1ccc(C(=O)N(c2cc(-c3ccccc3)sc2C(=O)O)C(C)C)c(O)c1	NS3 ATPase		IC50	Hepatitis C virus	5–20 µM
O=C(O)c1cc2nc(-c3ccc(OCc4cccc(C(F)(F)F)c4)cc3)c(C3CCCCC3)c(=O)n2[nH]1	RNA-dependent RNA polymerase		IC50	Hepatitis C virus	<1 µM
Cc1ccc(S(=O)(=O)Nc2cc(-c3ccc(F)cc3)sc2C(N)=O)cc1	NS3 ATPase		IC50	Hepatitis C virus	5–20 µM
C[C@H](NC(=O)c1cnn2c(C3CCCCC3)c(-c3ccc(F)cc3)cnc12)C(=O)O	RNA-dependent RNA polymerase		IC50	Hepatitis C virus	1–10 µM
O=C(O)[C@@H](Cc1ccccc1)N(Cc1cc(Br)cs1)C(=O)c1ccc(Cl)cc1Cl	RNA-dependent RNA polymerase		IC50	Hepatitis C virus	<5 µM

Repeating the final 7 entries:

{"structure": "C=CCN(C(=O)c1ccc(Cl)cc1Cl)[C@@H](Cc1ccccc1)C(=O)O", "protein": "RNA-dependent RNA polymerase", "endpoint": "IC50", "agent": "Hepatitis C virus", "value": "5–20 µM"}
{"structure": "O=C(O)c1cc2nc(-c3ccc(Cl)cc3Cl)cc(-c3cccc(OCc4ccccc4)c3)n2n1", "protein": "RNA-dependent RNA polymerase", "endpoint": "IC50", "agent": "Hepatitis C virus", "value": "1–10 µM"}
{"structure": "Cc1ccc(C(=O)N(c2cc(-c3ccccc3)sc2C(=O)O)C(C)C)c(O)c1", "protein": "NS3 ATPase", "endpoint": "IC50", "agent": "Hepatitis C virus", "value": "5–20 µM"}
{"structure": "O=C(O)c1cc2nc(-c3ccc(OCc4cccc(C(F)(F)F)c4)cc3)c(C3CCCCC3)c(=O)n2[nH]1", "protein": "RNA-dependent RNA polymerase", "endpoint": "IC50", "agent": "Hepatitis C virus", "value": "<1 µM"}
{"structure": "Cc1ccc(S(=O)(=O)Nc2cc(-c3ccc(F)cc3)sc2C(N)=O)cc1", "protein": "NS3 ATPase", "endpoint": "IC50", "agent": "Hepatitis C virus", "value": "5–20 µM"}
{"structure": "C[C@H](NC(=O)c1cnn2c(C3CCCCC3)c(-c3ccc(F)cc3)cnc12)C(=O)O", "protein": "RNA-dependent RNA polymerase", "endpoint": "IC50", "agent": "Hepatitis C virus", "value": "1–10 µM"}
{"structure": "O=C(O)[C@@H](Cc1ccccc1)N(Cc1cc(Br)cs1)C(=O)c1ccc(Cl)cc1Cl", "protein": "RNA-dependent RNA polymerase", "endpoint": "IC50", "agent": "Hepatitis C virus", "value": "<5 µM"}